# In-gel DMS probing of monomeric and dimeric HIV-1 RNA

The 5' region of HIV-1 NL4-3 RNA (positions 1-437):
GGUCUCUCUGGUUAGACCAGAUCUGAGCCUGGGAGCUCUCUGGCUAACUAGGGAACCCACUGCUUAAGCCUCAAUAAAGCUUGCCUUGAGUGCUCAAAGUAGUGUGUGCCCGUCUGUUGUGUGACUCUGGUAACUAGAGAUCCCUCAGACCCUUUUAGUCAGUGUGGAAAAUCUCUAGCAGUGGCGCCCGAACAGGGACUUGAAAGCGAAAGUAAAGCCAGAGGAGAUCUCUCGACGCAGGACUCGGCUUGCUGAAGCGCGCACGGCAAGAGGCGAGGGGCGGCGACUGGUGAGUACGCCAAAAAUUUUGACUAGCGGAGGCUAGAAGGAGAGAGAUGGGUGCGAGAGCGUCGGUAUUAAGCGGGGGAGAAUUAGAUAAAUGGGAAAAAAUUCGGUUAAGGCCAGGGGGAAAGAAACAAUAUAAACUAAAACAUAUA

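Mutant RNA libraries with 1G, 2G or 3G starts, with or without cap, were folded at 37 °C for 30 min. Monomer and dimer bands were cut from native gels after folding in high salt (300 mM KCl, 5 mM MgCl2) or low salt (40 mM KCl, 0.1 mM MgCl2). Gel slices were treated with 170 mM dimethyl sulfate for 15 min at 37 °C and read by mutational profiling against an ethanol control.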

Values are winsor-normalised DMS reactivities of A and C; higher means more reactive, usually unpaired. One numbering serves 1G, 2G and 3G. A position is written with its base.

For A77 (domain PolyA) the result was 1G capped low-salt dimer 0.74; 3G uncapped low-salt dimer 0.74; 3G capped low-salt dimer 0.71; 3G uncapped high-salt dimer 0.63.
For A78 (domain PolyA) the result was 1G capped low-salt dimer 0.64; 3G uncapped low-salt dimer 0.75; 3G capped low-salt dimer 0.74; 3G uncapped high-salt dimer 0.74.
For C80 (domain PolyA) the result was 1G capped low-salt dimer 0.41; 3G uncapped low-salt dimer 0.25; 3G capped low-salt dimer 0.22; 3G uncapped high-salt dimer 0.24.
For C84 (domain PolyA) the result was 1G capped low-salt dimer 0.72; 3G uncapped low-salt dimer 0.39; 3G capped low-salt dimer 0.36; 3G uncapped high-salt dimer 0.39.
For C85 (domain PolyA) the result was 1G capped low-salt dimer 0.41; 3G uncapped low-salt dimer 0.29; 3G capped low-salt dimer 0.24; 3G uncapped high-salt dimer 0.27.
For A89 (domain PolyA) the result was 1G capped low-salt dimer 0.43; 3G uncapped low-salt dimer 0.66; 3G capped low-salt dimer 0.63; 3G uncapped high-salt dimer 0.65.
For C93 (domain PolyA) the result was 1G capped low-salt dimer 0.05; 3G uncapped low-salt dimer 0.06; 3G capped low-salt dimer 0.07; 3G uncapped high-salt dimer 0.09.
For C95 (domain PolyA) the result was 1G capped low-salt dimer 0.56; 3G uncapped low-salt dimer 0.43; 3G capped low-salt dimer 0.37; 3G uncapped high-salt dimer 0.41.
For A96 (domain PolyA) the result was 1G capped low-salt dimer 0.25; 3G uncapped low-salt dimer 0.31; 3G capped low-salt dimer 0.28; 3G uncapped high-salt dimer 0.26.
For A97 (domain PolyA) the result was 1G capped low-salt dimer 0.37; 3G uncapped low-salt dimer 0.60; 3G capped low-salt dimer 0.55; 3G uncapped high-salt dimer 0.50.
For A98 (domain PolyA) the result was 1G capped low-salt dimer 0.32; 3G uncapped low-salt dimer 0.60; 3G capped low-salt dimer 0.59; 3G uncapped high-salt dimer 0.53.
For A101 (domain PolyA) the result was 1G capped low-salt dimer 0.17; 3G uncapped low-salt dimer 0.30; 3G capped low-salt dimer 0.30; 3G uncapped high-salt dimer 0.27.
For C109 (domain U5) the result was 1G capped low-salt dimer 0.19; 3G uncapped low-salt dimer 0.08; 3G capped low-salt dimer 0.07; 3G uncapped high-salt dimer 0.09.
For C110 (domain U5) the result was 1G capped low-salt dimer 0.15; 3G uncapped low-salt dimer 0.08; 3G capped low-salt dimer 0.07; 3G uncapped high-salt dimer 0.08.
For C111 (domain U5) the result was 1G capped low-salt dimer 0.22; 3G uncapped low-salt dimer 0.13; 3G capped low-salt dimer 0.12; 3G uncapped high-salt dimer 0.14.
For C114 the result was 1G capped low-salt dimer 0.26; 3G uncapped low-salt dimer 0.20; 3G capped low-salt dimer 0.15; 3G uncapped high-salt dimer 0.22.
For A124 the result was 1G capped low-salt dimer 0.95; 3G uncapped low-salt dimer 1.22; 3G capped low-salt dimer 1.12; 3G uncapped high-salt dimer 1.11.
For C125 (domain PAS) the result was 1G capped low-salt dimer 0.10; 3G uncapped low-salt dimer 0.08; 3G capped low-salt dimer 0.06; 3G uncapped high-salt dimer 0.08.
For C127 (domain PAS) the result was 1G capped low-salt dimer 0.05; 3G uncapped low-salt dimer 0.05; 3G capped low-salt dimer 0.03; 3G uncapped high-salt dimer 0.03.
For A132 (domain PBS) the result was 1G capped low-salt dimer 0.56; 3G uncapped low-salt dimer 0.43; 3G capped low-salt dimer 0.43; 3G uncapped high-salt dimer 0.42.

The opening 2 entries, copied out:

position,domain,1G capped low-salt dimer,3G uncapped low-salt dimer,3G capped low-salt dimer,3G uncapped high-salt dimer
A77,PolyA,0.74,0.74,0.71,0.63
A78,PolyA,0.64,0.75,0.74,0.74

The measurements come from Ye et al. 2022 (doi:10.1038/s41594-022-00746-2).